Compound potency records, mixed from different reports. Data source: NIAID ChemDB in PubChem.

Common to all: tests on isolated targets; organism: HIV-1; target: Reverse transcriptase; endpoint: IC50

Two numbers with a dash give a range or band. ICn is the concentration giving n% inhibition. Neighbouring rows are from separate reports. An empty or dashed field is not shown.

compound,strain or isolate,mutations,read by,result
CC(C)[C@H](NC(=O)c1ccc(NC(=O)CSc2nnc(Br)n2-c2ccc(C3CC3)c3ccccc23)c(Cl)c1)C(=O)O,,RT-Y181C,nucleotide incorporation / radiometric,<0.05 µM
CC(C)(C#Cc1ccc(NC(=O)CSc2nnnn2-c2cc(Br)ccc2Cl)c(Cl)c1)NC(=O)c1cc[n+]([O-])cc1,,RT-K103 Y181C,PicoGreen / fluorescence,<1 µM
CCc1ccc(-n2c(SCC(=O)Nc3ccc(S(N)(=O)=O)cc3Cl)nnc2C(F)F)c2c1CCCC2,,RT-Y181C,nucleotide incorporation / radiometric,<0.05 µM
CC(C)(C#Cc1ccc(NC(=O)CSc2nnnn2-c2ccccc2Cl)c(Cl)c1)C(=O)O,WT,,PicoGreen / fluorescence,<1 µM
Nc1cc2c(c(N3CCOCC3)c1)CCN(c1nn3c(C4CC4)nnc3c3ccccc13)C2,98US_MSC5016,,RT activity / fluorescence,18.2 µM
Cc1cc(S(N)(=O)=O)ccc1NC(=O)CSc1nnc(CF)n1-c1c(C)cc(C)c2ccccc12,,,nucleotide incorporation / radiometric,<0.05 µM
FC(F)(F)c1cccc2c1CCN(c1nn3c(C4CC4)nnc3c3ccccc13)C2,98US_MSC5016,,RT activity / fluorescence,22.4 µM
CCN1c2ncc(CCOc3ccc(C(=O)O)cc3C)cc2-c2nccn2-c2cccnc21,,RT-K103N Y181C,nucleotide incorporation / radiometric,>0.1 µM
CCc1ccc(-n2c(Br)nnc2SCC(=O)Nc2ccc(S(N)(=O)=O)cc2Cl)c2ccccc12,,,nucleotide incorporation / radiometric,<0.05 µM
CC(C)(C)c1ccc(-n2nnnc2SCC(=O)Nc2ccc(NC(=O)Cc3ccc[n+]([O-])c3)cc2Cl)c(Cl)c1,,RT-K103 Y181C,PicoGreen / fluorescence,<1 µM
S=C(NCc1ccco1)c1[nH]c2ccc(Cl)cc2c1Sc1ccccc1,,,nucleotide incorporation,0.003–0.035 µM
CCN1c2ncc(CCOc3ccc(-c4ccc(N)nc4C)cc3C)cc2C(=O)N(C)c2cccnc21,IIIB,,nucleotide incorporation / radiometric,<0.05 µM
CCOC(=O)N1c2cccc(OCCc3cnc4c(c3)-c3nccn3-c3c(C)ccnc3N4CC)c2CS1(=O)=O,,RT-K103N Y181C,nucleotide incorporation / radiometric,<0.05 µM
CCN1c2nc(C(F)(F)F)ccc2NC(=O)c2cc(CCOc3cc[n+]([O-])c4ccccc34)cnc21,,RT-V106A,nucleotide incorporation / radiometric,0.893 µM
CCOC(=O)CN(C)C(=O)c1ccc(NC(=O)CSc2nnc(Br)n2-c2ccc(C3CC3)c3ccccc23)c(Cl)c1,,RT-Y181C,nucleotide incorporation / radiometric,<0.05 µM
CC(C)(C#Cc1ccc(NC(=O)CSc2nnnn2-c2ccc(C3CC3)cc2Cl)c(Cl)c1)NC(=O)c1ccccc1,,RT-K103 Y181C,PicoGreen / fluorescence,<1 µM
CCc1ccc(-n2c(Br)nnc2SCC(=O)Nc2ccc(C(=O)NCCO)cc2Cl)c2ccccc12,,,nucleotide incorporation / radiometric,<0.05 µM
CC(C)(C#Cc1ccc(NC(=O)CSc2nnnn2-c2ccc(C3CC3)cc2Cl)c(Cl)c1F)NC(=O)c1cc[n+]([O-])cc1,WT,,PicoGreen / fluorescence,<1 µM
CCN1c2ncc(CCOc3ccc(/C=C/C(=O)O)c4ccccc34)cc2C(=O)Nc2c(C)ccnc21,WT,,nucleotide incorporation / radiometric,<0.1 µM
CC(C)(C)c1ccc(-n2nnnc2SCC(=O)Nc2ccc(-c3ccc(OCCN4CCC(O)CC4)cc3)cc2Cl)c(Cl)c1,,RT-K103 Y181C,PicoGreen / fluorescence,<1 µM
CCN1c2ncc(CCOc3ccc(C(=O)Nc4ccc(C(=O)O)cn4)cc3C)cc2C(=O)N(C)c2cccnc21,IIIB,,nucleotide incorporation / radiometric,<0.05 µM
Cc1cc(S(N)(=O)=O)ccc1NC(=O)CSc1nnc(Br)n1-c1ccc(C)c2c1CCCC2,,RT-Y188L,nucleotide incorporation / radiometric,0.05–0.1 µM
O=C(CSc1nnnn1-c1ccc(C2CC2)cc1Cl)Nc1ccc(C(=O)NS(=O)(=O)c2ccccc2)cc1Cl,WT,,PicoGreen / fluorescence,<1 µM
CCc1ccc(-n2c(Br)nnc2SCC(=O)Nc2ccc(C(=O)NCC(OC)OC)cc2Cl)c2ccccc12,,,nucleotide incorporation / radiometric,<0.05 µM
COc1cccc(CNC(=O)c2[nH]c3ccc(Cl)cc3c2Sc2ccccc2)c1,,,nucleotide incorporation,0.003–0.035 µM
Cc1nnc2c3ccccc3c(N3CCc4ncccc4C3)nn12,IIIB,,RT activity / fluorescence,1.85 µM
CC(C)(C#Cc1ccc(NC(=O)CSc2nnnn2-c2ccc(C3CC3)cc2Cl)c(Cl)c1)NC(=O)c1ccc[n+]([O-])c1,,RT-K103 Y181C,PicoGreen / fluorescence,<1 µM
CCOCn1c(Sc2ccccc2)c(CC)c(=O)[nH]c1=O,,RT-Y188L,nucleotide incorporation,>50 µM
CCc1ccc(-n2c(Br)nnc2SCC(=O)Nc2ccc(C(=O)N[C@H](C(=O)OC)C(C)C)cc2Cl)c2ccccc12,,RT-Y188L,nucleotide incorporation / radiometric,<0.05 µM
CCN1c2ncc(CCOc3ccc(-c4ccc(CC(=O)O)cc4)cc3C)cc2C(=O)N(C)c2cccnc21,IIIB,,nucleotide incorporation / radiometric,<0.05 µM
CCN1c2ncc(CCOc3ccc(C(=O)O)cc3C)cc2-c2ncc(C)n2-c2cccnc21,,,nucleotide incorporation / radiometric,<0.05 µM
COC(=O)[C@H](CC(C)C)NC(=O)c1ccc(NC(=O)CSc2nnc(Br)n2-c2ccc(C3CC3)c3ccccc23)c(Cl)c1,,,nucleotide incorporation / radiometric,<0.05 µM
CC(C)(C)c1ccc(-n2nnnc2SCC(=O)Nc2ccc(C(=O)Nc3ccc(O)cc3)cc2Cl)c(Cl)c1,,RT-K103 Y181C,PicoGreen / fluorescence,<1 µM
Cc1ccc2c(C)ccc(-n3c(Br)nnc3SCC(=O)Nc3ccc(S(N)(=O)=O)cc3Br)c2c1,,RT-Y181C,nucleotide incorporation / radiometric,<0.05 µM
CC(C)(O)C#Cc1ccc(NC(=O)CSc2nnnn2-c2cc(C#N)ccc2Cl)c(Cl)c1,,RT-K103 Y181C,PicoGreen / fluorescence,<1 µM
Cc1cc(C)cc(S(=O)(=O)c2c(C(N)=O)[nH]c3ccc(Cl)cc23)c1,,RT-Y188L,nucleotide incorporation / radiometric,0.2 µM
N#Cc1cccc2c(-n3c(SCC(=O)Nc4ccc(S(N)(=O)=O)cc4Cl)nnc3C(F)F)cccc12,,,nucleotide incorporation / radiometric,0.05–0.1 µM
CCN1c2ncc(CCOc3ccc(CC(=O)O)c4c3CCCC4)cc2C(=O)N(C)c2cccnc21,,RT-V106A,nucleotide incorporation / radiometric,>1 µM
CCN1c2ncc(CCOc3cccc4c3CNS4(=O)=O)cc2-c2ncc(C)n2-c2cccnc21,,,nucleotide incorporation / radiometric,<0.05 µM
Cc1cc(C2CC2)ccc1-n1c(Br)nnc1SCC(=O)Nc1ccc(S(N)(=O)=O)cc1Cl,,RT-Y188L,nucleotide incorporation / radiometric,>0.1 µM
Cc1c(N2CCc3ccccc3C2)nn2c(C)nnc2c1C,IIIB,,RT activity / fluorescence,57.3 µM
CC(C)(C#Cc1ccc(NC(=O)CSc2nnnn2-c2ccc(C3CC3)cc2Cl)c(Cl)c1)C(=O)NCc1cc[n+]([O-])cc1,WT,,PicoGreen / fluorescence,<1 µM
Cc1cc(C)cc(S(=O)(=O)c2c(C(=O)NC(C)C(N)=O)[nH]c3ccc(Cl)cc23)c1,WT,,nucleotide incorporation / radiometric,0.003 µM
N#CN=C(N)c1[nH]c2ccc(Cl)cc2c1S(=O)(=O)c1ccccc1,,,nucleotide incorporation,0.003–0.035 µM
NS(=O)(=O)c1ccc(NC(=O)CSc2nncn2-c2ccc(C3CC3)c3ccccc23)c(Cl)c1,,RT-Y188L,nucleotide incorporation / radiometric,>0.1 µM
c1ccc2c(c1)CN(c1nn3c(C4CC4)nnc3c3ccccc13)C2,98US_MSC5016,,RT activity / fluorescence,>100 µM
CC(C)(C)c1ccc(-n2nnnc2SCC(=O)Nc2ccc(C(=O)NCc3ccc(O)c(O)c3)cc2Cl)c(Cl)c1,,RT-K103 Y181C,PicoGreen / fluorescence,<1 µM
CCc1ccc(-n2c(C)nnc2SCC(=O)Nc2ccc(S(N)(=O)=O)cc2Cl)c2c1CCCC2,,RT-Y181C,nucleotide incorporation / radiometric,0.05–0.1 µM
CCN1c2ncc(CCOc3ccc(-c4ccc(F)c(C(=O)O)c4)cc3)cc2C(=O)N(C)c2cccnc21,IIIB,,nucleotide incorporation / radiometric,<0.05 µM
CC(C)(C)c1ccc(-n2nnnc2SCC(=O)Nc2ccc(C#CC3(O)CCC3)cc2Cl)c(Cl)c1,,RT-K103 Y181C,PicoGreen / fluorescence,<1 µM
O=C(NCCO)c1[nH]c2ccc(Cl)cc2c1Sc1ccccc1,,,nucleotide incorporation,0.003–0.035 µM
CCN1c2ncc(CCOc3cccc4c3CS(=O)(=O)N4CC(=O)O)cc2-c2nccn2-c2c(C)ccnc21,,RT-K103N Y181C,nucleotide incorporation / radiometric,0.05–0.1 µM
CCN1c2ncc(CCOc3ccc(C4CC4C(=O)O)c4ccccc34)cc2C(=O)N(C)c2ccc(F)nc21,,RT-V106A,nucleotide incorporation / radiometric,0.1–1 µM
Cc1nnc2ccc(N3CCc4ccccc4C3)nn12,98US_MSC5016,,RT activity / fluorescence,16.5 µM
Cc1cc(C(F)(F)F)cc(-n2nnnc2SCC(=O)Nc2ccc(-c3ccc(CC(=O)O)cc3)cc2Cl)c1Cl,,RT-K103 Y181C,PicoGreen / fluorescence,<1 µM
CCNC(=O)N1CCc2c(OCCc3cnc4c(c3)C(=O)N(C)c3cccnc3N4CC)ccc(C(=O)O)c2C1,,RT-V106A,nucleotide incorporation / radiometric,0.1–1 µM
CC(C)(C)c1ccc(-n2nnnc2SCC(=O)Nc2ccc(NC(=O)Cc3cc[n+]([O-])cc3)cc2Cl)c(Cl)c1,WT,,PicoGreen / fluorescence,<1 µM
CCN1c2ncc(CCOc3cccc4c3CCS(=O)(=O)N4)cc2-c2ncc(C)n2-c2cccnc21,,,nucleotide incorporation / radiometric,<0.05 µM
CC(CC(=O)O)NC(=O)COc1ccc(NC(=O)CSc2nnnn2-c2ccc(C(C)(C)C)cc2Cl)c(Cl)c1,WT,,PicoGreen / fluorescence,<1 µM
CCc1ccc(-n2c(Br)nnc2SCC(=O)Nc2ccc(S(N)(=O)=O)cc2Br)c2ccccc12,,RT-Y181C,nucleotide incorporation / radiometric,<0.05 µM
O=C(COc1ccc(NC(=O)CSc2nnnn2-c2ccc(C3CC3)cc2Cl)c(Cl)c1)NCCc1cccc[n+]1[O-],WT,,PicoGreen / fluorescence,<1 µM
NS(=O)(=O)c1ccc(NC(=O)CSc2nnc(Br)n2-c2ccc(C3CC3)cc2)c(Cl)c1,,RT-Y181C,nucleotide incorporation / radiometric,<0.05 µM
CC(C)(N)C#Cc1ccc(NC(=O)CSc2nnnn2-c2cc(C(F)(F)F)cc(C3CC3)c2Cl)c(Cl)c1F,WT,,PicoGreen / fluorescence,<1 µM
Cc1cc(C2CC2)cc(C)c1-n1c(Br)nnc1SCC(=O)Nc1ccc(C(=O)O)cc1Cl,,,nucleotide incorporation / radiometric,<0.05 µM
CC(C)(C#Cc1ccc(NC(=O)CSc2nnnn2-c2ccc(C3CC3)cc2Cl)c(Cl)c1)NC(=O)OC(C)(C)C,WT,,PicoGreen / fluorescence,<1 µM
Cc1cc(C2CC2)c2ccccc2c1-n1c(Br)nnc1SCC(=O)Nc1ccc(C(=O)O)cc1Cl,,RT-Y181C,nucleotide incorporation / radiometric,<0.05 µM

The first 6 rows once more:

{"compound": "CC(C)[C@H](NC(=O)c1ccc(NC(=O)CSc2nnc(Br)n2-c2ccc(C3CC3)c3ccccc23)c(Cl)c1)C(=O)O", "mutations": "RT-Y181C", "read by": "nucleotide incorporation / radiometric", "result": "<0.05 µM"}
{"compound": "CC(C)(C#Cc1ccc(NC(=O)CSc2nnnn2-c2cc(Br)ccc2Cl)c(Cl)c1)NC(=O)c1cc[n+]([O-])cc1", "mutations": "RT-K103 Y181C", "read by": "PicoGreen / fluorescence", "result": "<1 µM"}
{"compound": "CCc1ccc(-n2c(SCC(=O)Nc3ccc(S(N)(=O)=O)cc3Cl)nnc2C(F)F)c2c1CCCC2", "mutations": "RT-Y181C", "read by": "nucleotide incorporation / radiometric", "result": "<0.05 µM"}
{"compound": "CC(C)(C#Cc1ccc(NC(=O)CSc2nnnn2-c2ccccc2Cl)c(Cl)c1)C(=O)O", "strain or isolate": "WT", "read by": "PicoGreen / fluorescence", "result": "<1 µM"}
{"compound": "Nc1cc2c(c(N3CCOCC3)c1)CCN(c1nn3c(C4CC4)nnc3c3ccccc13)C2", "strain or isolate": "98US_MSC5016", "read by": "RT activity / fluorescence", "result": "18.2 µM"}
{"compound": "Cc1cc(S(N)(=O)=O)ccc1NC(=O)CSc1nnc(CF)n1-c1c(C)cc(C)c2ccccc12", "read by": "nucleotide incorporation / radiometric", "result": "<0.05 µM"}